Data taken from US9625458B2, “Biosensor” (priority 2002, dated 2017).
Numbering of substitutions follows the chain as printed. Names may count otherwise.

Assay: Fluorescence emission spectra without and with saturating ligand (wavelength shift, ΔIstd, ΔRmax)
Conditions: for λmax,apo (nm) / λmax,sat (nm): emission maximum; for λmax,apo (nm): absence of ligand; for λmax,sat (nm): saturating ligand (ligand column); for ΔIstd: standard intensity change; for ΔIstd / ΔRmax: unbound vs ligand-saturated; for ΔRmax: standard ratiometric change
Method in brief: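 Emission spectra of bPBP–fluorophore conjugates (50–1000 nM protein, 25 °C, stirred) recorded without and with saturating ligand, using fluorophore-specific excitation. Wavelength shift, ΔIstd (intensity change at the mid-point wavelength) and ΔRmax (maximal ratiometric change over enumerated band pairs, 2 nm steps, 10 nm width) derived.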

B1: arabinose BP D257C JPW4039 (conjugate, UniProt P02924 24-329, looked up, variant D257C)
L-arabinose-binding …: ENLKLGFLVKQPEEPWFQTEWKFADKAGKDLGFEVIKIAVPDGEKTLNAIDSLAASGAKGFVICTPDPKLGSAIVAKARGYDMKVIAVDDQFVNAKGKPMDTVPLVMMAATKIGERQGQELYKEMQKRGWDVKESAVMAITANELDTARRRTTGSMDALKAAGFPEKQIYQVPTKSNDIPGAFDAANSMLVQHPEVKHWLIVGMNDSTVLGGVRATEGQGFKAADIIGIGINGVDAVSELSKAQATGFYGSLLPSPCVHGYKSSEMLYNWVAKDVEPPKFTEVTDVVLITRDNFKEELEKKGLGGK
modifications: JPW4039 dye conjugate
λmax,apo (nm): 600 | λmax,sat (nm): 596 | ΔIstd: 0.38 | ΔRmax: 0.92

B2: arabinose BP D257C Acrylodan (conjugate, UniProt P02924 24-329, looked up, variant D257C)
L-arabinose-binding …: B1 L-arabinose-binding …
modifications: acrylodan label
λmax,apo (nm): 495 | λmax,sat (nm): 495 | ΔIstd: 0.26 | ΔRmax: 1.66

B3: arabinose BP D257C Fluorescein (conjugate, UniProt P02924 24-329, looked up, variant D257C)
L-arabinose-binding …: B1 L-arabinose-binding …
modifications: fluorescein label
λmax,apo (nm): 519 | λmax,sat (nm): 520 | ΔIstd: 0.03 | ΔRmax: 1.17

B4: dipeptide BP W315C NBD (conjugate, UniProt P23847 29-535, looked up, variant W315C)
Dipeptide-binding protein: KTLVYCSEGSPEGFNPQLFTSGTTYDASSVPLYNRLVEFKIGTTEVIPGLAEKWEVSEDGKTYTFHLRKGVKWHDNKEFKPTRELNADDVVFSFDRQKNAQNPYHKVSGGSYEYFEGMGLPELISEVKKVDDNTVQFVLTRPEAPFLADLAMDFASILSKEYADAMMKAGTPEKLDLNPIGTGPFQLQQYQKDSRIRYKAFDGYWGTKPQIDTLVFSITPDASVRYAKLQKNECQVMPYPNPADIARMKQDKSINLMEMPGLNVGYLSYNVQKKPLDDVKVRQALTYAVNKDAIIKAVYQGAGVSAKNLIPPTMCGYNDDVQDYTYDPEKAKALLKEAGLEKGFSIDLWAMPVQRPYNPNARRMAEMIQADWAKVGVQAKIVTYEWGEYLKRAKDGEHQTVMMGWTGDNGDPDNFFATLFSCAASEQGSNYSKWCYKPFEDLIQPARATDDHNKRVELYKQAQVVMHDQAPALIIAHSTVFEPVRKEVKGYVVDPLGKHHFENVSIE
modifications: NBD dye conjugate
λmax,apo (nm): 546 | λmax,sat (nm): 546 | ΔIstd: 0.15 | ΔRmax: 0.37

B5: Glu/Asp BP A207C JPW4039 (conjugate, UniProt P37902 23-302, looked up, variant A207C)
Glutamate/aspartate import …: DDAAPAAGSTLDKIAKNGVIVVGHRESSVPFSYYDNQQKVVGYSQDYSNAIVEAVKKKLNKPDLQVKLIPITSQNRIPLLQNGTFDFECGSTTNNVERQKQAAFSDTIFVVGTRLLTKKGGDIKDFANLKDKAVVVTSGTTSEVLLNKLNEEQKMNMRIISAKDHGDSFRTLESGRAVAFMMDDCLLAGERAKAKKPDNWEIVGKPQSQEAYGCMLRKDDPQFKKLMDDTIAQVQTSGEAEKWFDKWFKNPIPPKNLNMNFELSDEMKALFKEPNDKALN
modifications: JPW4039 label
λmax,apo (nm): 592 | λmax,sat (nm): 593 | ΔIstd: 0.05 | ΔRmax: 0.35

B6: Glu/Asp BP A210C JPW4042 (conjugate, UniProt P37902 23-302, looked up, variant A210C)
Glutamate/aspartate import …: B5 Glutamate/aspartate import … with C185A, A188C
modifications: JPW4042 dye conjugate
λmax,apo (nm): 648 | λmax,sat (nm): 645 | ΔIstd: 0.11 | ΔRmax: 0.79

B7: Glu/Asp BP A210C Acrylodan (conjugate, UniProt P37902 23-302, looked up, variant A210C)
Glutamate/aspartate import …: B5 Glutamate/aspartate import … with C185A, A188C
modifications: acrylodan label
λmax,apo (nm): 497 | λmax,sat (nm): 496 | ΔIstd: 0.09 | ΔRmax: 0.40

B8: Glu/Asp BP E119C Acrylodan (conjugate, UniProt P37902 23-302, looked up, variant E119C)
Glutamate/aspartate import …: B5 Glutamate/aspartate import … with E97C, C185A
modifications: acrylodan conjugate
λmax,apo (nm): 498 | λmax,sat (nm): 497 | ΔIstd: 0.11 | ΔRmax: 0.65

B9: Glu/Asp BP A207C Acrylodan (conjugate, UniProt P37902 23-302, looked up, variant A207C)
Glutamate/aspartate import …: B5 Glutamate/aspartate import …
modifications: acrylodan label
λmax,apo (nm): 498 | λmax,sat (nm): 497 | ΔIstd: 0.26 | ΔRmax: 1.61

B10: Glu/Asp BP E119C JPW4039 (conjugate, UniProt P37902 23-302, looked up, variant E119C)
Glutamate/aspartate import …: B5 Glutamate/aspartate import … with E97C, C185A
modifications: JPW4039 dye conjugate
λmax,apo (nm): 593 | λmax,sat (nm): 594 | ΔIstd: 0.12 | ΔRmax: 0.34

B11: Glu/Asp BP A207C Fluorescein (conjugate, UniProt P37902 23-302, looked up, variant A207C)
Glutamate/aspartate import …: B5 Glutamate/aspartate import …
modifications: fluorescein conjugate
λmax,apo (nm): 520 | λmax,sat (nm): 520 | ΔIstd: 0.12 | ΔRmax: 0.25

B12: Glu/Asp BP A207C JPW4042 (conjugate, UniProt P37902 23-302, looked up, variant A207C)
Glutamate/aspartate import …: B5 Glutamate/aspartate import …
modifications: JPW4042 dye label
λmax,apo (nm): 635 | λmax,sat (nm): 634 | ΔIstd: 0.20 | ΔRmax: 1.37

B13: Glu/Asp BP F131C JPW4039 (conjugate, UniProt P37902 23-302, looked up, variant F131C)
Glutamate/aspartate import …: B5 Glutamate/aspartate import … with F109C, C185A
modifications: JPW4039 label
λmax,apo (nm): 593 | λmax,sat (nm): 597 | ΔIstd: 0.15 | ΔRmax: 0.37

B14: Glu/Asp BP A210C Fluorescein (conjugate, UniProt P37902 23-302, looked up, variant A210C)
Glutamate/aspartate import …: B5 Glutamate/aspartate import … with C185A, A188C
modifications: fluorescein conjugate
λmax,apo (nm): 522 | λmax,sat (nm): 522 | ΔIstd: 0.02 | ΔRmax: 0.14

B15: Glu/Asp BP E119C Fluorescein (conjugate, UniProt P37902 23-302, looked up, variant E119C)
Glutamate/aspartate import …: B5 Glutamate/aspartate import … with E97C, C185A
modifications: fluorescein conjugate
λmax,apo (nm): 523 | λmax,sat (nm): 523 | ΔIstd: 0.05 | ΔRmax: 0.09

B16: Glu/Asp BP E119C NBD (conjugate, UniProt P37902 23-302, looked up, variant E119C)
Glutamate/aspartate import …: B5 Glutamate/aspartate import … with E97C, C185A
modifications: NBD dye conjugate
λmax,apo (nm): 544 | λmax,sat (nm): 544 | ΔIstd: 0.05 | ΔRmax: 0.25

B17: Glu/Asp BP A210C NBD (conjugate, UniProt P37902 23-302, looked up, variant A210C)
Glutamate/aspartate import …: B5 Glutamate/aspartate import … with C185A, A188C
modifications: NBD conjugate
λmax,apo (nm): 543 | λmax,sat (nm): 542 | ΔIstd: 0.02 | ΔRmax: 0.30

B18: Glu/Asp BP A210C JPW4045 (conjugate, UniProt P37902 23-302, looked up, variant A210C)
Glutamate/aspartate import …: B5 Glutamate/aspartate import … with C185A, A188C
modifications: JPW4045 label
λmax,apo (nm): 647 | λmax,sat (nm): 650 | ΔIstd: 0.09 | ΔRmax: 0.71

B19: Glu/Asp BP A210C JPW4039 (conjugate, UniProt P37902 23-302, looked up, variant A210C)
Glutamate/aspartate import …: B5 Glutamate/aspartate import … with C185A, A188C
modifications: JPW4039 dye label
λmax,apo (nm): 593 | λmax,sat (nm): 594 | ΔIstd: 0.08 | ΔRmax: 0.26

B20: Glu/Asp BP E119C JPW4045 (conjugate, UniProt P37902 23-302, looked up, variant E119C)
Glutamate/aspartate import …: B5 Glutamate/aspartate import … with E97C, C185A
modifications: JPW4045 dye label
λmax,apo (nm): 649 | λmax,sat (nm): 644 | ΔIstd: 0.08 | ΔRmax: 1.73

B21: Glu/Asp BP A207C NBD (conjugate, UniProt P37902 23-302, looked up, variant A207C)
Glutamate/aspartate import …: B5 Glutamate/aspartate import …
modifications: NBD dye conjugate
λmax,apo (nm): 529 | λmax,sat (nm): 542 | ΔIstd: 0.05 | ΔRmax: 2.53

B22: Glu/Asp BP A207C JPW4045 (conjugate, UniProt P37902 23-302, looked up, variant A207C)
Glutamate/aspartate import …: B5 Glutamate/aspartate import …
modifications: JPW4045 label
λmax,apo (nm): 637 | λmax,sat (nm): 639 | ΔIstd: 0.15 | ΔRmax: 1.19
